PubChem BioAssay AID624099 – ICCB-Longwood | 2012
In all, the deposit lists about 21,000 reagents; below is an unselected part. Over the whole deposit, 497 (2.4%) are marked active. 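Higher z means weaker E2 silencing; only reporter increases were scored, and knock-downs that hurt cell survival may mask genuine repressor factors.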 Unmarked entries are inactive. The numbers tell different reagents against one gene apart.

- Assay: 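Knock-downs relieving repression by E2 of an HPV18 LCR luciferase reporter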 (primary screen)
- Cells: human C33A cervical carcinoma cells (HPV-negative) stably expressing BPV1 E2 and an HPV18 LCR luciferase reporter
- Knock-down reagent: siRNA pool against human genes, 40 nM
- Duration: 72 h
- Detection: 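Per-well luciferase luminescence, z-scored on each plate against the plate mean and SD with control wells left out, then averaged across three replicate plates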
- Scale: mean z-score and z-score: higher = stronger reporter signal, weaker E2 silencing
- Rule for the call: 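Mean z ≥ 2 together with z ≥ 2 in two or more of the three replicates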

target gene	pool no.	mean z-score	z-score, replicate A	z-score, replicate B	z-score, replicate C
SLC35B4 (GeneID 84912)	1	-0.93	-1.15	-1.06	-0.57
POLR1HASP (GeneID 80862)	1	-1.11	-1.36	-0.79	-1.19
CDCP2 (GeneID 200008)	1	0.61	0.73	0.41	0.68
DLX5 (GeneID 1749)	1	1.59	1.58	1.62	1.58
WNT2 (GeneID 7472)	1	0.34	0.3	0.3	0.4
ENPP5 (GeneID 59084)	1	-0.5	-0.61	-0.74	-0.17
NANOG (GeneID 79923)	1	0.9	0.59	1.1	1.02
NEU1 (GeneID 4758)	1	-0.04	-0.01	0.14	-0.24
TREML2 (GeneID 79865)	1	-0.69	-0.24	-0.8	-1.03
LOC400870 (retired record) (GeneID 400870)	1	0.24	0.19	0.05	0.46
DNAH12 (GeneID 201625)	1	-1.26	-1.31	-1.26	-1.2
DNAH12 (GeneID 201625)	2	-0.15	-0.33	0.01	-0.13
UBE2R2 (GeneID 54926)	1	0.42	0.41	0.04	0.82
TMEM86B (GeneID 255043)	1	-0.16	-0.39	-0.1	0.01
LOC401006 (retired record) (GeneID 401006)	1	0.52	0.83	0.2	0.54
SFI1 (GeneID 9814)	1	0.35	0.48	0.42	0.15
PDIA5 (GeneID 10954)	1	-1.97	-2.15	-2.07	-1.69
DPEP3 (GeneID 64180)	1	0.57	0.17	0.37	1.18
MAGED4B (GeneID 81557)	1	-1.06	-0.68	-0.56	-1.93
UMPS (GeneID 7372)	1	0.58	0.51	0.57	0.65
PTPN22 (GeneID 26191)	1	-0.46	-0.16	-0.71	-0.51
ATP13A1 (GeneID 57130)	1	0.44	0.5	0.44	0.38
FRMD4A (GeneID 55691)	1	0.22	0	0.25	0.4
S100A10 (GeneID 6281)	1	-0.59	-0.38	-0.86	-0.53
TXNDC17 (GeneID 84817)	1	1.34	1.36	1.1	1.56
LRRTM3 (GeneID 347731)	1	0.63	0.78	0.64	0.48
SUMF2 (GeneID 25870)	1	-0.78	-1.06	-0.58	-0.69
NXT2 (GeneID 55916)	1	-1.14	-0.72	-1.28	-1.42
PSG3 (GeneID 5671)	1	0.9	0.82	1.09	0.78
CALML4 (GeneID 91860)	1	-0.89	-0.85	-0.77	-1.06
FBP2 (GeneID 8789)	1	-1.75	-1.62	-1.68	-1.94
SLC7A3 (GeneID 84889)	1	1.61	1.48	1.6	1.76
LINC01356 (GeneID 100996702)	1	-0.24	-0.33	0.06	-0.45
ACAD8 (GeneID 27034)	1	-0.97	-0.91	-0.97	-1.03
MOB1A (GeneID 55233)	1	-0.57	-0.36	-1.02	-0.35
MPI (GeneID 4351)	1	0.86	1.01	0.9	0.67
GSTT1 (GeneID 2952)	1	-0.83	-0.81	-0.92	-0.76
FABP3 (GeneID 2170)	1	0.03	0	0.23	-0.14
ANO7L1 (GeneID 101927546)	1	0.92	1.14	0.99	0.64

A few values from above:
Entry for FRMD4A (GeneID 55691) in “z-score, replicate C”: 0.4
Under “z-score, replicate C”, TREML2 (GeneID 79865) is entered as -1.03
Under “z-score, replicate A”, LRRTM3 (GeneID 347731) shows 0.78
Value of MOB1A (GeneID 55233) under “mean z-score”: -0.57
For “z-score, replicate B”, UBE2R2 (GeneID 54926) reads 0.04
ACAD8 (GeneID 27034), z-score, replicate A: -0.91
